Measured values from several laboratories, pooled; numbers as filed in NIAID ChemDB.

All rows: whole-cell or culture tests; agent: Mycobacterium tuberculosis

MIC50, MIC90 and the like: level of inhibition, or share of isolates inhibited. Percent inhibition refers to the dose given; in toxicity tests it is the harm to the cells. Blank or dashed fields: not listed here. Two numbers with a dash give a range or band. MIC bound: limit read from a one-dose screen. Neighbouring rows are from separate reports.

smiles	strain	method	setting	read-out	tested at	value
CC(C)[C@H]1CO[C@]23CC[C@H](N(Cc4ccc(C(F)(F)F)cc4)C4CN(CCF)C4)C[C@H]2CCC(=O)N13	-	resazurin	-	MIC	-	<0.5 µM
O=C(NCc1cccnc1)c1cc(Cl)cc(Cl)c1O	H37Rv	-	14 d	MIC	-	250 µM
O=C(Nc1ccc(Cl)cc1)c1ccc(Cl)cc1OS(=O)(=O)c1ccccc1	H37Rv	-	14 d	MIC	-	8 µM
O=C(NCc1ccc(N2CCN(Cc3ccccc3)CC2)nc1)c1ccc([N+](=O)[O-])o1	UT15	-	-	MIC	-	0.012 µg/mL
O=C(NCc1ccc([N+](=O)[O-])cc1)c1ncccc1S	CNCTC MY 331/8	-	-	MIC	-	8 µM
CC(=O)Nc1n[n+]([O-])c2cc(C)ccc2[n+]1[O-]	H37Rv	BACTEC	-	MIC bound	-	<6.25 µg/mL
CN1CCN(CCCN2c3ccccc3Sc3ccc(C(F)(F)F)cc32)CC1	-	-	-	MIC90	-	8 µg/mL
O=C(Nc1ccc(Br)cc1)c1cc(Cl)ccc1OS(=O)(=O)c1ccccc1	H37Rv	-	21 d	MIC	-	8 µM
FC(F)(F)c1cccc(-c2cn3cc(Cl)sc3n2)c1	H37Rv	-	-	MIC	-	>6.25 µg/mL
CC(C)[C@H]1CO[C@]23CC[C@@H](OC(c4ccc(F)cc4)c4ccc(F)cc4)C[C@H]2CCC(=O)N13	-	resazurin	-	MIC	-	<0.5 µM
CN1CCN(Cc2ccc(NC/C=C/c3ccccc3)cc2)CC1	B814	-	-	MIC	-	16 µg/mL
Cc1c(Cl)nc(Nc2nc3ccccc3[nH]2)nc1Cl	H37Rv	BACTEC	-	MIC bound	-	>6.25 µg/mL
O=C(c1ccc([N+](=O)[O-])o1)N1CCc2cc(N3CCN(Cc4ccccc4)CC3)ccc2C1	UT15	-	-	MIC	-	0.012 µg/mL
CC(/C=C/[C@H](C)C(C)C)[C@H]1CC[C@H]2C3=CC=C4C[C@@H](O)CC[C@]4(C)C3=CC[C@]12C	H37Rv	-	-	MIC	-	128 µg/mL
O=C(O)C(Cc1ccccc1)N1CSC(=S)N(c2ccco2)C1	H37Rv	-	-	MIC	-	50 µg/mL
CN1CCN(Cc2ccccc2NC/C=C/c2ccccc2)CC1	B905	-	-	MIC	-	>64 µg/mL
CC(C)[C@H]1CO[C@]23CC[C@H](N(Cc4ccc(C(F)(F)F)cc4)C4CN(CCCF)C4)C[C@H]2CCC(=O)N13	-	resazurin	-	MIC	-	<0.5 µM
CC(=O)OCC(=O)[C@H]1CC[C@H]2[C@@H]3CCC4=CC(=O)CC[C@]4(C)[C@H]3CC[C@]12C	-	-	-	MIC90	-	64 µg/mL
Clc1cn2cc(-c3ccc(Cl)c(Cl)c3Cl)nc2s1	H37Rv	-	-	inhibition	6.25 µg/mL	0%
O=C(Nc1ccc(Cl)c(Cl)c1)c1ccc(Cl)cc1OS(=O)(=O)c1ccccc1	H37Rv	-	14 d	MIC	-	4 µM
CC(C)[C@H]1CO[C@]23CC[C@H](N(Cc4ccc(C(F)(F)F)nc4)CC4CN(C(=O)OC(C)(C)C)C4)C[C@H]2CCC(=O)N13	-	resazurin	-	MIC	-	0.5–5 µM
N#Cc1nc2cc(C(F)(F)F)ccc2nc1N	H37Rv	-	-	MIC	-	>12.5 µg/mL
c1ccc(-c2cn3ccsc3n2)cc1	H37Rv	-	-	MIC	-	>6.25 µg/mL
Clc1ccccc1/C=N\C1=NN2C(=CSC2c2ccccc2)S1	H37Rv	resazurin	-	MIC	-	6.25 µg/mL
C[C@@H]1C[C@]23CCC4[C@]5(C)CCC[C@]4(C)C(=O)OC(=O)[C@]4(C)CCC[C@@]6(C)C7C[C@H](OC(=O)CCCCCCCCC(=O)O[C@]1(CCC25)C3)[C@@H]1C[C@@]7(CCC64)C[C@@H]1C	H37Rv	BACTEC	-	MIC	-	5 µg/mL
C(=C\c1ccccc1)/CNc1ccc(CN2CCOCC2)cc1	B814	-	-	MIC	-	32 µg/mL
Cc1ccc(C2SC=C3SC(N4C(=O)C(Cl)C4c4ccc(C)cc4)=NN32)cc1	H37Rv	resazurin	-	MIC	-	0.8 µg/mL
O=C(NCc1cccnc1)c1cc(Cl)ccc1O	H37Rv	-	21 d	MIC	-	500 µM
C(/C=C/c1ccccc1)=Nc1ccc(Cn2ccnc2)cc1	6425	-	-	MIC	-	8 µg/mL
O=C1c2ccccc2C(=O)N1N=Cc1cccc(O)c1O	H37Ra	resazurin	-	MIC50	-	>50 µg/mL
CCN(CC)CCCC(C)Nc1cc(C)nc(Nc2nc3cc(Cl)c(Cl)cc3[nH]2)n1	H37Rv	BACTEC	-	MIC	-	12.5 µg/mL
O=C(N=Nc1c(O)[nH]c2ccccc12)c1ccc([N+](=O)[O-])cc1Cl	H37Rv	resazurin	-	MIC50	-	>50 µg/mL
O=C(NC(N1CCN(c2cc3c(cc2F)c(=O)c(C(=O)O)cn3C2CC2)CC1)(C(F)(F)F)C(F)(F)F)c1ccccc1	H37Rv	resazurin	-	MIC	-	0.78 µg/mL
CC(C)[C@H]1CO[C@]23CC[C@H](N(CCCF)Cc4ccc(C(F)(F)F)cc4)C[C@H]2CCC(=O)N13	-	resazurin	-	MIC	-	<0.5 µM
COc1c2occc2c(OC)c2c(=O)cc(/C=C/c3ccncc3)oc12	H37Rv	BACTEC	-	inhibition	12.5 µg/mL	-14%
O=C(NCc1cccnc1)c1cc(Br)ccc1O	H37Rv	-	21 d	MIC	-	125 µM
COc1ccc2cc1Oc1ccc(cc1)C[C@H]1c3cc(c(OC)cc3CCN1C)Oc1c(OC)c(OC)cc3c1[C@@H](C2)N(C)CC3	H37Rv	BACTEC	-	MIC	-	≥12.8 µg/mL
O=C(N=Nc1c(O)[nH]c2ccc(Br)cc12)c1ccccn1	H37Rv	resazurin	-	MIC50	-	>50 µg/mL
Cc1ccc(/C=N\C2=NN3C(=CSC3c3ccc(C)cc3)S2)cc1	H37Rv	resazurin	-	MIC	-	3.125 µg/mL
S=C1SCN(C2CCCCC2)CN1Cc1ccccc1	H37Rv	-	-	MIC	-	50 µg/mL
CCOC(=O)c1ccc(N2N=C3C(=CC(=O)c4ccccc43)SCC2=O)cc1	H37Rv	BACTEC	-	inhibition	12.5 µg/mL	96%
NNC(=O)c1cc(-c2ccc(-c3ccc([N+](=O)[O-])s3)s2)nc2ccccc12	H37Rv	fluorescence	-	MIC	-	6.25 µg/mL
Cc1cc(-n2nnc3ccccc3c2=O)on1	H37Rv	BACTEC	-	inhibition	12.5 µg/mL	55%
O=C(Nc1cccc(F)c1)c1ccc(Cl)cc1OS(=O)(=O)c1ccccc1	H37Rv	-	14 d	MIC	-	16 µM
CC(=O)OC[C@@]12[C@@H](OC(C)=O)CC3C[C@@H](C)[C@](C)(CCC4=CC(=O)OC4)CC3[C@H]1CCC[C@]21CO1	H37Rv	-	-	MIC	-	>128 µg/mL
O=C(O)c1cc(/C=C\c2ccc(-c3ccc([N+](=O)[O-])s3)s2)nc2ccccc12	H37Rv	fluorescence	-	MIC	-	6.25 µg/mL
C(=C\c1ccccc1)/CNc1ccccc1Cn1ccnc1	B905	-	-	MIC	-	8 µg/mL
CC1COc2c(N3CCN(C)CC3)c(F)cc3c(=O)c(C(=O)O)cn1c23	001-012 (drug-resistant)	-	-	MIC	-	1 µg/mL
O=C(Nc1cccc(Cl)c1)c1ncccc1S	CNCTC MY 331/8	-	-	MIC	-	32 µM
O=C1C(S(=O)(=O)O)=CC(=Nc2ccc(O)cc2)c2ccccc21	H37Rv	BACTEC	-	MIC bound	-	>12.5 µg/mL
C(=C\c1ccccc1)/CNc1ccc(Cn2ccnc2)cc1	103471	-	-	MIC	-	1 µg/mL
N#Cc1nc2ccccc2nc1Cl	H37Rv	-	-	MIC	-	>12.5 µg/mL
O=C(O)c1ccc(N2C(=O)c3cccc([N+](=O)[O-])c3C2=O)cc1O	H37Ra	resazurin	-	MIC50	-	0.39 µg/mL
O=C(Nc1ccc(C(F)(F)F)cc1)c1ncccc1O	CNCTC MY 331/8	-	-	MIC	-	62.5 µM
O=C(O)CN1CSC(=S)N(C2CC2)C1	H37Rv	-	-	MIC	-	50 µg/mL
O=[N+]([O-])c1ccc(C2=NOC(c3ccc(N4CCN(Cc5ccccc5)CC4)cc3)C2)o1	H37Rv	-	-	MIC	-	0.006 µg/mL
O=C(NCc1cccc(Cl)c1)c1ncccc1S	CNCTC MY 331/8	-	-	MIC	-	16 µM
Clc1ccc2c(c1)N(C1CCCN(Cc3ccccc3)C1)c1ccccc1S2.O=C(O)/C=C\C(=O)O	H37Rv	BACTEC	-	inhibition	12.5 µg/mL	88%
COC(=O)[C@H]1[C@H]2C[C@@H]3c4[nH]c5cc(OC)ccc5c4CCN3C[C@H]2C[C@@H](OC(=O)c2cc(OC)c(OC)c(OC)c2)[C@@H]1OC	-	-	-	MIC50	-	8 µg/mL
CC(=O)Oc1ccc2c(oc(=O)c3nc(C)oc32)c1C	H37Rv	BACTEC	-	MIC bound	-	>6.25 µg/mL
O=C(N=Nc1c(O)[nH]c2ccccc12)c1ccc(O)cc1O	H37Rv	resazurin	-	MIC50	-	>50 µg/mL
C(=C\c1ccccc1)/CNc1cccc(Cn2ccnc2)c1	B814	-	-	MIC	-	4 µg/mL
COc1cc2c(cc1OC)-c1cc3ccc(OC)c(OC)c3c[n+]1CC2	-	-	-	MIC90	-	>128 µg/mL
Clc1ccc2c(c1)Nc1ccccc1S2	H37Rv	BACTEC	-	inhibition	12.5 µg/mL	90%
Cn1cc(C(=O)N=Nc2c(O)n(C)c3ccccc23)c2ccccc21	H37Ra	resazurin	-	MIC50	-	25 µg/mL
Clc1ccc(-c2cn3cc(Cl)sc3n2)cc1	H37Rv	-	-	inhibition	6.25 µg/mL	0%
S=C(SCc1nc(-c2ccc(Cl)cc2)no1)N1CCSCC1	H37Rv	BACTEC	-	MIC	-	64 µg/mL
O=C(NCc1ccccc1)c1cc(Br)cc(Br)c1O	H37Rv	-	21 d	MIC	-	32 µM
Cc1ccc(-c2cn3cc(Cl)sc3n2)cc1	H37Rv	-	-	MIC	-	>6.25 µg/mL
O=C1c2ccccc2C(=O)N1N=Cc1ccc(O)c(O)c1	H37Rv	resazurin	-	MIC50	-	>50 µg/mL
NNC(=O)c1cc(-c2ccccc2)nc2ccccc12	H37Rv	fluorescence	-	MIC	-	>6.25 µg/mL
COCCCn1cnn2c(=O)c3ccccc3nc2c1=O	H37Rv	resazurin	-	MIC bound	-	>6.25 µg/mL
O=C1C(Cl)C(c2ccc(O)cc2)N1C1=NN2C(=CSC2c2ccc(O)cc2)S1	H37Rv	resazurin	-	MIC	-	1.6 µg/mL
COc1cccc(/C(C#N)=N/NC(=O)c2nc[nH]c2C)c1	H37Rv	BACTEC	-	MIC bound	-	>12.5 µg/mL
O=C(Nc1cccc(F)c1)c1cc(Cl)ccc1OS(=O)(=O)c1ccccc1	H37Rv	-	14 d	MIC	-	16 µM
N[C@@H]1CONC1=O	-	-	-	MIC	-	20 µg/mL
CC(=O)OC[C@@]12[C@@H](OC(C)=O)C[C@@H](C)[C@](C)([C@@H]3CC4C=COC4O3)[C@H]1CCC[C@]21CO1	H37Rv	-	-	MIC	-	>128 µg/mL
NNC(=O)c1cc(/C=C/c2ccc(-c3ccc([N+](=O)[O-])s3)s2)nc2ccccc12	H37Rv	fluorescence	-	MIC	-	3.125 µg/mL
O=C(Nc1ccc(C(F)(F)F)cc1)c1ccc(Cl)cc1OS(=O)(=O)c1ccccc1	H37Rv	-	14 d	MIC	-	2 µM
CCCCNc1c(CN)cnc2cc(Cl)ccc12	H37Rv	resazurin	-	MIC bound	-	>6.25 µg/mL
Cc1cccc(C(=O)NCc2cccnc2)c1O	H37Rv	-	21 d	MIC	-	250 µM
O=c1c(Br)cc2nc3ccccc3sc-2c1Br	H37Rv	BACTEC	-	MIC bound	-	>12.5 µg/mL
C/C(=N\NC(=S)N(C)C)c1ccccn1.[Cu][Br]	V4207	-	-	MIC90	-	6.25 µM
C[C@@H]1C[C@]23CCC4[C@]5(C)CCC[C@]4(C)C2CC[C@]1(C3)OC(=O)CCCCCCCC(=O)O[C@H]1CC2[C@@]3(CCC4[C@@](C)(CCC[C@]42C)COCCCOC(=O)CC(=O)OCCCOC5)C[C@@H]1[C@@H](C)C3	H37Rv	BACTEC / radiometric	-	MIC99	-	20 µg/mL
O=C(O)C(Cc1ccccc1)N1CSC(=S)N(Cc2ccccc2)C1	H37Rv	-	-	MIC	-	50 µg/mL
COC(=O)C(CO)NC(=O)C(CSC(c1ccccc1)(c1ccccc1)c1ccccc1)NC(=O)OCc1ccccc1	H37Rv	BACTEC	-	inhibition	12.8 µg/mL	25%
FC(F)(F)c1cccc(-c2cn3ccsc3n2)c1	H37Rv	-	-	inhibition	6.25 µg/mL	83%
O=C(Cn1nnc(N2CCCCC2)n1)N/N=C/c1ccccc1O	H37Rv	BACTEC	-	MIC bound	-	>12.5 µg/mL
O=C(Nc1ccccc1)c1cc(-c2ccc(-c3cccs3)s2)nc2ccccc12	H37Rv	fluorescence	-	MIC	-	>6.25 µg/mL
O=C(N=Nc1c(O)[nH]c2ccccc12)C(F)(F)F	H37Rv	BACTEC	-	MIC bound	-	>12.5 µg/mL
O=C(Nc1ccc(Cl)cc1)c1ncccc1O	CNCTC MY 331/8	-	-	MIC	-	62.5 µM

7 of the rows above, restated:

O=C(NCc1cccnc1)c1cc(Cl)ccc1O ; strain: H37Rv ; setting: 21 d ; read-out: MIC ; value: 500 µM
C[C@@H]1C[C@]23CCC4[C@]5(C)CCC[C@]4(C)C2CC[C@]1(C3)OC(=O)CCCCCCCC(=O)O[C@H]1CC2[C@@]3(CCC4[C@@](C)(CCC[C@]42C)COCCCOC(=O)CC(=O)OCCCOC5)C[C@@H]1[C@@H](C)C3 ; strain: H37Rv ; method: BACTEC / radiometric ; read-out: MIC99 ; value: 20 µg/mL
CC(C)[C@H]1CO[C@]23CC[C@H](N(Cc4ccc(C(F)(F)F)cc4)C4CN(CCCF)C4)C[C@H]2CCC(=O)N13 ; method: resazurin ; read-out: MIC ; value: <0.5 µM
Cn1cc(C(=O)N=Nc2c(O)n(C)c3ccccc23)c2ccccc21 ; strain: H37Ra ; method: resazurin ; read-out: MIC50 ; value: 25 µg/mL
O=C1C(Cl)C(c2ccc(O)cc2)N1C1=NN2C(=CSC2c2ccc(O)cc2)S1 ; strain: H37Rv ; method: resazurin ; read-out: MIC ; value: 1.6 µg/mL
COc1c2occc2c(OC)c2c(=O)cc(/C=C/c3ccncc3)oc12 ; strain: H37Rv ; method: BACTEC ; read-out: inhibition ; tested at: 12.5 µg/mL ; value: -14%
O=[N+]([O-])c1ccc(C2=NOC(c3ccc(N4CCN(Cc5ccccc5)CC4)cc3)C2)o1 ; strain: H37Rv ; read-out: MIC ; value: 0.006 µg/mL